Measured values from several laboratories, pooled; numbers as filed in NIAID ChemDB.

Shared fields: target-level tests; species: HIV-1; protein: gp120

Fold resistance has wild type as its base. Percent inhibition refers to the dose given; in toxicity tests it is the harm to the cells. Blank or dashed fields: not listed here. ICn: concentration for n% inhibition. Rows are shuffled and stem from different studies.

compound	read by	changes	endpoint	dose	strain or isolate	conditions	value
CCCCCCCCC[C@H]1CC2CCC3C(C(=O)OCCCCN=C(N)N)[C@@H](C)N=C(N1)N23	ELISA	-	IC50	-	-	-	72 µM
CC1(C)CC(NC(=O)C(=O)Nc2ccc(Br)cc2)CC(C)(C)N1	ELISA	-	IC50	-	IIIB	-	3.08 µM
O=CC1OC(=O)c2cc(O)c(O)c(O)c2Oc2cc3c(c(O)c2O)-c2c(cc(O)c(O)c2O)C(=O)OCC2OC(OC(=O)c4cc(O)c(O)c(O)c4Oc4cc5c(c(O)c4O)-c4c(cc(O)c(O)c4O)C(=O)OC(C(O)COC5=O)C1OC(=O)c1cc(O)c(O)c(O)c1)C(OC(=O)c1cc(O)c(O)c(O)c1)C(OC(=O)c1cc(O)c(O)c(O)c1)C2OC3=O	binding	-	inhibition	3.13 µg/mL	-	-	66.3%
C=Cc1c(C)c2cc3c(C=C)c(C)c(cc4nc(cc5nc(cc1[nH]2)C(C)=C5CCC(=O)O)C(CCC(=O)O)=C4C)n3C	-	-	IC50	-	-	-	<60 µg/mL
O=C(C(=O)N1CCN(C(=O)c2ccccc2)CC1)c1c[nH]c2ccccc12	ELISA	-	inhibition	1 µM	YU2	-	80%
O=CC(O)C(OC(=O)c1cc(O)c(O)c(O)c1)C1OC(=O)c2cc(O)c(O)c(O)c2-c2c(cc(O)c(O)c2O)C(=O)OCC1O	binding	-	inhibition	0.78 µg/mL	-	-	1.9%
CC(C)(CS(=O)(=O)[O-])[NH2+]C(=O)C(CC(F)(OC(F)(F)C(F)(OC(F)(F)C(F)(OC(F)(F)C(F)(F)C(F)(F)F)C(F)(F)F)C(F)(F)F)C(F)(F)F)C(F)(OC(F)(F)C(F)(OC(F)(F)C(F)(OC(F)(F)C(F)(F)C(F)(F)F)C(F)(F)F)C(F)(F)F)C(F)(F)F	ELISA	-	inhibition	4 µg/mL	-	-	72%
CCCCCCC[C@H]1CC2CCC3=C(C(=O)OCCCCN=C(N)N)C(CCCCC)N=C(N1)N32	ELISA	-	IC50	-	-	-	>100 µM
COc1ccnc2[nH]cc(C(=O)C(=O)N3CCN(C(=O)c4ccccc4)C[C@H]3C)c12	ELISA	GP120-M475I	fold resistance	-	LAI	-	83
O=C(O)CCC1=C(CC(=O)O)c2cc3nc(cc4[nH]c(cc5[nH]c(cc1n2)c(CC(=O)O)c5CCC(=O)O)c(CC(=O)O)c4CCC(=O)O)C(CC(=O)O)=C3CCC(=O)O	-	-	IC50	-	-	-	>60 µg/mL
CC[C@H](C)[C@H](NC(=O)[C@@H](N)CC(N)=O)C(=O)N1CCC[C@H]1C(=O)N[C@@H](Cc1c[nH]c2ccccc12)C(=O)N[C@@H](CO)C(=O)N[C@@H](CCC(=O)O)C(=O)N[C@@H](C)C(=O)O	ELISA	-	IC50	-	SF2	-	>500 µM
C=Cc1c(C)c2cc3nc(cc4[nH]c(cc5nc(cc1[nH]2)C(C)=C5CO)c(C)c4CCC(=O)O)C(CCC(=O)O)=C3C	-	-	inhibition	60 µg/mL	-	-	89.5%
NOCc1c(F)cccc1Cl	ELISA	-	inhibition	20 µg/mL	-	-	7%
C=Cc1c(C)c2cc3[nH]c(cc4nc(cc5nc(cc1[nH]2)C(C)=C5CCC(=O)O)C(CCC(=O)O)=C4C)c(C)c3C(C)O	-	-	IC50	-	-	-	<60 µg/mL
COC(=O)C(=O)N1CCC[C@@H]1C(=O)N[C@H](Cc1ccccc1)C(=O)OCc1ccccc1	ELISA	-	inhibition	500 µM	-	10% FBS	13%
O=C(O)c1ccc(-c2c3nc(c(-c4ccc(C(=O)O)cc4)c4ccc([nH]4)c(-c4ccc(C(=O)O)cc4)c4nc(c(-c5ccc(C(=O)O)cc5)c5ccc2[nH]5)C=C4)C=C3)cc1	-	-	IC50	-	-	-	<60 µg/mL
O=C(OC[C@H]1O[C@@H](O)[C@@H]2OC(=O)c3cc(O)c(O)c(O)c3-c3c(cc(O)c(O)c3O)C(=O)O[C@H]2[C@@H]1OC(=O)c1cc(O)c(O)c(O)c1Oc1cc2c(c(O)c1O)-c1c(cc(O)c(O)c1O)C(=O)O[C@@H]1[C@@H](OC2=O)[C@H](OC(=O)c2cc(O)c(O)c(O)c2)O[C@@H]2COC(=O)c3cc(O)c(O)c(O)c3-c3c(cc(O)c(O)c3O)C(=O)O[C@@H]12)c1cc(O)c(OC(=O)c2cc(O)c(O)c(O)c2)c(O)c1	binding	-	inhibition	12.5 µg/mL	-	-	81%
CC1=C(CCC(=O)O)c2cc3[nH]c(cc4nc(cc5[nH]c(cc1n2)c(CCC(=O)O)c5CC(=O)O)C(CCC(=O)O)=C4C)c(CCC(=O)O)c3CC(=O)O	-	-	inhibition	60 µg/mL	-	-	40.3%
CSCC[C@H](NC(=O)[C@@H]1CCCN1C(=O)[C@H](Cc1cnc[nH]1)NC(=O)[C@H](Cc1c[nH]c2ccccc12)NC(=O)[C@@H](N)Cc1ccccc1)C(=O)N[C@@H](Cc1cnc[nH]1)C(=O)N[C@@H](CC(=O)O)C(=O)O	ELISA	-	IC50	-	HXB2	-	>500 µM

A second listing of 3 rows from above:

compound | read by | changes | endpoint | dose | strain or isolate | conditions | value
O=C(C(=O)N1CCN(C(=O)c2ccccc2)CC1)c1c[nH]c2ccccc12 | ELISA | - | inhibition | 1 µM | YU2 | - | 80%
O=CC(O)C(OC(=O)c1cc(O)c(O)c(O)c1)C1OC(=O)c2cc(O)c(O)c(O)c2-c2c(cc(O)c(O)c2O)C(=O)OCC1O | binding | - | inhibition | 0.78 µg/mL | - | - | 1.9%
O=C(O)c1ccc(-c2c3nc(c(-c4ccc(C(=O)O)cc4)c4ccc([nH]4)c(-c4ccc(C(=O)O)cc4)c4nc(c(-c5ccc(C(=O)O)cc5)c5ccc2[nH]5)C=C4)C=C3)cc1 | - | - | IC50 | - | - | - | <60 µg/mL